PubChem BioAssay AID624099 – ICCB-Longwood, 2012
Assay: 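Host factors E2 relies on to silence an HPV18 LCR reporter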 (primary screen). System: human C33A cervical carcinoma cells (HPV-negative) stably expressing BPV1 E2 and an HPV18 LCR luciferase reporter. Knock-down reagent: siRNA pool against human genes, 40 nM. Timing: 72 h. Read-out: 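HPV18 LCR reporter light per well, converted to plate-wise z-scores that exclude control wells, and averaged over triplicate plates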. Scale: mean z-score and z-score: higher = stronger reporter signal, weaker E2 silencing. Active means: 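Hit if mean z-score reaches 2 and two or more of three replicate z-scores also reach 2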.
The whole screen tested about 21,000 reagents; below is a random part of them. 497 of all reagents (2.4%) count as active. 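Higher z means weaker E2 silencing; only reporter increases were scored, and knock-downs that hurt cell survival may mask genuine repressor factors.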

gene symbol,mean z-score,"z-score, replicate A","z-score, replicate B","z-score, replicate C",call
PDE5A (phosphodiesterase 5A),-1.14,-1.04,-1.14,-1.23,inactive
SEMA3B (semaphorin 3B),0.13,0.23,0.05,0.12,inactive
CCDC28A (coiled-coil domain containing 28A),0.47,0.05,0.46,0.91,inactive
CYP7B1 (cytochrome P450 family 7 subfamily B member 1),1.28,1.1,1.28,1.46,inactive
LOC285442 (mitochondrial translation release factor 1 like pseudogene),-0.51,-0.42,-0.39,-0.72,inactive
HGFAC (HGF activator),-0.31,-0.41,-0.23,-0.28,inactive
RSBN1 (round spermatid basic protein 1),-0.07,-0.4,-0.17,0.35,inactive
TEX36 (testis expressed 36),0.75,0.99,0.72,0.55,inactive
ZNF135 (zinc finger protein 135),-0.16,-0.08,-0.18,-0.22,inactive
PDPK1 (3-phosphoinositide dependent protein kinase 1),-0.48,-0.25,-0.63,-0.55,inactive
CCDC17 (coiled-coil domain containing 17),0.37,-0.15,0.69,0.57,inactive
IL16 (interleukin 16),0.12,-0.08,0.24,0.18,inactive
MPV17L (MPV17 mitochondrial inner membrane protein like),-1.8,-1.63,-1.7,-2.06,inactive
PSMB2 (proteasome 20S subunit beta 2),0.19,0.1,0.08,0.38,inactive
ZNF511 (zinc finger protein 511),0.33,-0.06,0.49,0.56,inactive
NOL4L (nucleolar protein 4 like),-0.68,-0.56,-0.95,-0.55,inactive
OR5K3 (olfactory receptor family 5 subfamily K member 3),-1.6,-1.32,-1.75,-1.73,inactive
PYGB (glycogen phosphorylase B),-0.48,-0.45,-0.5,-0.5,inactive
PRKCD (protein kinase C delta),-1.39,-1.38,-1.18,-1.62,inactive
YPEL5 (yippee like 5),0.46,0.69,0.34,0.36,inactive
TATDN1 (TatD DNase domain containing 1),-1.58,-1.54,-1.54,-1.67,inactive
PKM (pyruvate kinase M1/2),3.01,3.43,2.69,2.91,active
FUZ (fuzzy planar cell polarity protein),1.54,1.9,1.57,1.15,inactive
SPMIP9 (sperm microtubule inner protein 9),-1.06,-1.06,-0.88,-1.25,inactive
SYNPO2 (synaptopodin 2),1.78,2.31,1.71,1.32,inactive
ECT2 (epithelial cell transforming 2),-0.91,-0.72,-1.05,-0.96,inactive
PCDHA11 (protocadherin alpha 11),-1.74,-1.71,-1.8,-1.71,inactive
OR2V2 (olfactory receptor family 2 subfamily V member 2),-1.03,-1,-1.19,-0.92,inactive
B3GNT4,0.86,0.97,0.85,0.76,inactive
GSTM3 (glutathione S-transferase mu 3),1,0.59,1.03,1.39,inactive
MTX1 (metaxin 1),0.29,0.17,0.47,0.23,inactive
REPS1 (RALBP1 associated Eps domain containing 1),-0.66,-0.38,-0.91,-0.7,inactive
CLDN9 (claudin 9),-0.26,-0.28,-0.06,-0.43,inactive
PTGER4 (prostaglandin E receptor 4),1.92,1.81,2.01,1.93,inactive
LINC02159 (long independently transcribed non-coding RNA 2159),-0.27,-0.48,-0.33,0,inactive
LOC388270 (retired record),-1.65,-1.3,-1.4,-2.24,inactive
TNFRSF21 (TNF receptor superfamily member 21),-0.46,-0.5,-0.53,-0.35,inactive
EFNB2 (ephrin B2),-0.04,-0.29,0.07,0.1,inactive
GNGT2 (G protein subunit gamma transducin 2),1.55,1.87,1.27,1.52,inactive
